Measured values from several laboratories, pooled; numbers as filed in NIAID ChemDB.

Common to all: tests in culture; agent: Mycobacterium tuberculosis

Percent inhibition refers to the dose given; in toxicity tests it is the harm to the cells. Rows are shuffled and stem from different studies. ECn is the concentration giving n% inhibition of infection, replication or growth. A number after MIC or MFC names an inhibition level or a share of isolates. MIC bound: limit read from a one-dose screen. An empty or dashed field is not shown.

SMILES	method	strain	endpoint	cell line	tested at	setting	result
O=C(c1ccncc1)N1C(c2ccccc2)=C(c2ccccc2)Sc2nnc(COc3ccc4ccccc4c3)n21			MIC				100 µg/mL
CC(=O)Oc1ccccc1C(=O)Nc1cnccn1	resazurin	H37Rv	MIC				>100 µg/mL
CCOCC(O)CNCCNCC(O)COCC		H37Rv	inhibition		6.25 µg/mL		5%
CC(Oc1ccc(-c2nc(N)nc(N)n2)cc1)c1ccccc1	resazurin	H37Rv	MIC				2050 µM
O=Cc1c(-c2ccc(Br)cc2)nc2sc(-c3cccs3)nn12	BACTEC	H37Rv	inhibition		6.25 µg/mL		<90%
Cc1nccc2c1[nH]c1cc(OC(=O)C(C)C)ccc12		H37Rv	EC50				>6.25 µg/mL
Nc1nc(N)nc(-c2ccc(OCc3ccc(Cl)cc3Cl)cc2)n1	resazurin	H37Rv	MIC				66.07 µM
COc1ccccc1/C=N/N=C(\N)c1ccncc1		1342	MIC				64 µg/mL
O=[N+]([O-])c1cccc(C=Nc2ccc(-c3nnc(NCc4ccccc4)s3)cc2)c1		H37Rv	inhibition		6.25 µg/mL		0%
Cc1ccc(/C=N/N=C(\N)c2ccncc2)c(C)c1		1481	MIC				4 µg/mL
CC(C)=CCC/C(C)=C/CC1(C)SC(=O)C(C)=C1O		H37Rv	MIC90				200 µM
Cn1cc(NC(=O)c2cc(NC(=O)CN=C(N)N)cn2C)c(C(=O)NCCC(=N)N)c1	BACTEC	H37Rv	MIC bound				≤128 µg/mL
CCCCCCCCCCCNCCNCC(C)c1ccccc1			MIC				6.25 µM
O=C1CSc2nnc(COc3ccccc3[N+](=O)[O-])n2N1C(=O)c1ccncc1			MIC				100 µg/mL
C=CCOc1ccc(/C=C/C(=O)c2ccc(O)cc2O)cc1	broth dilution	H37Rv	MIC				100 µg/mL
CCCCCCCCCCCNCCNCCCO			MIC				50 µM
C1COCCN1.S=C(S)N1CCOCC1	BACTEC	H37Rv	inhibition		12.5 µg/mL		14%
O=Cc1c(-c2ccc(Br)cc2)nc2sc(-c3ccco3)nn12	BACTEC	H37Rv	inhibition		6.25 µg/mL		<90%
CCCCCc1ccc(Oc2cnccc2C(=O)O)c(O)c1			MIC100				25 µg/mL
NC1CCC(CC2CCC(NCc3ccc(OCc4ccccc4)cc3)CC2)CC1		H37Rv	MIC				1.56 µM
c1cc(NCCN[C@H]2C[C@@H]3CC[C@H]2C3)c2cccnc2c1			MIC				>50 µM
Nc1ccccc1-c1nnc2n1N(C(=O)c1ccncc1)C(c1ccccc1)=C(c1ccccc1)S2			MIC				100 µg/mL
N/C(=N\N=C\c1ccccc1Br)c1ccncc1		H37Rv	MIC				8 µg/mL
CC1=NN(C(=O)c2ccncc2)C(=O)C1N=Nc1ccc([N+](=O)[O-])cc1Cl	BACTEC	H37Rv	MIC bound				>12.8 µg/mL
CCCCCc1ccc(Oc2cccnc2F)c(O)c1			MIC100				0.3125 µg/mL
N#Cc1c(C#N)c(-c2ccco2)n(-c2ccccc2)c1N	BACTEC	H37Rv	MIC bound				>6.25 µg/mL
COc1cc(-c2nc(N)nc(N)n2)ccc1OCc1cccc(Cl)c1	resazurin	H37Rv	MIC				6.26 µM
O=C(Cc1ccc(Cl)cc1)N/N=C/c1ccc([N+](=O)[O-])s1	BACTEC	H37Rv	MIC	VERO			3.13 µg/mL
CCCCCc1ccc(Oc2cncnc2N)c(O)c1			MIC100				3.125 µg/mL
Clc1ccc(CNc2cccc(N3CCOCC3)c2)cc1		103471	MIC				>8 µg/mL
O=C1CSc2nnc(COc3ccccc3)n2N1C(=O)c1ccncc1			MIC				100 µg/mL
O=C1CCC[C@@H]2[C@H]3C[C@@H](CN12)[C@@H]1C[C@@H](O)CCN1C3	BACTEC	H37Rv	MIC bound				>12.8 µg/mL
O=C(O)c1cn(C2CC2)c2cc(N3CCN(C(=O)Cc4ccccc4Nc4c(Cl)cccc4Cl)CC3)c(F)cc2c1=O		H37Rv	MIC				0.16 µM
c1ccc(-c2cn3nc(-c4cccs4)sc3n2)cc1	BACTEC	H37Rv	inhibition		6.25 µg/mL		<90%
Clc1ccc(CNc2ccc(N3CCSCC3)cc2)cc1		103471	MIC				>16 µg/mL
Cc1c(C(=O)c2ccccc2)[n+](=O)c2cc(Cl)ccc2n1[O-]	BACTEC	H37Rv	EC50	VERO			<6.25 µg/mL
O=C1C=C(Nc2ccc(Cl)cc2C(=O)c2ccccc2)c2ccccc2C1=O	resazurin	H37Rv	inhibition		6.25 µg/mL		23%
CCCCCc1ccc(Oc2ccccc2Cl)c(O)c1			MIC100				1.56 µg/mL
Brc1ccc(-c2nc3sc(C4CCCCC4)nn3c2CN2CCCC2)cc1	BACTEC	H37Rv	inhibition		6.25 µg/mL		<90%
CN1CCN(CCSC(=O)N2c3ccccc3Sc3ccc(Cl)cc32)CC1	BACTEC	H37Rv	inhibition		12.5 µg/mL		67%
OCc1ccccc1Sc1ccccc1CNCCNCC(c1ccccc1)c1ccccc1			MIC				6.25 µM
c1ccc(-c2ccc(CNc3ccc(N4CCOCC4)cc3)cc2)cc1		103471	MIC				4 µg/mL
N#Cc1ccc(/C=N/N=C(\N)c2ccncc2)cc1		H37Rv	MIC				256 µg/mL
O=C(Nc1ccccc1N1CCSCC1)c1ccc(-c2ccccc2)cc1		103471	MIC				>16 µg/mL
CC(C)c1ccc2c(c1)CC[C@H]1[C@](C)(CNCCNC3CCCCC3)CCC[C@]21C			MIC				25 µM
Oc1ccccc1C=Nc1ccc(-c2nnc(Nc3ccccc3)s2)cc1		H37Rv	inhibition		6.25 µg/mL		51%
CCOc1ccc2nc(NC(=O)c3c/c(=N\NC(=O)C[N+](C)(C)C)c4ccc(O)cc4o3)sc2c1.[Cl-]	BACTEC	H37Rv	MIC				>12.5 µg/mL
COc1ccc(-c2nc(N)nc(N)n2)cc1OCc1cccc(Cl)c1	resazurin	H37Rv	MIC				18.45 µM
N/C(=N\N=C\c1ccc([N+](=O)[O-])cc1)c1ccncc1		1054	MIC				>256 µg/mL
COc1cc(/C=N/NC(=O)Cc2ccccc2Nc2c(Cl)cccc2Cl)ccc1O		H37Rv	MIC				7.02 µM
CCCCN(CCCC)CCCn1cnc2ncccc2c1=O	resazurin	H37Rv	inhibition		6.25 µg/mL		6%
Nc1ccc(-c2nnc3n2N(C(=O)c2ccncc2)C(c2ccccc2)=C(c2ccccc2)S3)cc1			MIC				100 µg/mL
CSC(=S)N/N=C/C(C)=N/N=C(N)N	BACTEC	H37Rv	inhibition		128 µg/mL		100%
CC(=O)c1c(CN2CCN(c3ccc(Cl)cc3)CC2)n([O-])c2cc(Cl)c(Cl)cc2[n+]1=O	BACTEC	H37Rv	inhibition		6.25 µg/mL		0%
CCCNc1nc2c(c(=O)n1-c1ccccc1)C=C(C(=O)OC)CCN2S(=O)(=O)c1ccc(C)cc1	BACTEC	H37Rv	MIC bound				>12.5 µg/mL
CC(=O)c1c(C)n([O-])c2ccc(Cl)cc2[n+]1=O	BACTEC	H37Rv	inhibition	VERO	6.25 µg/mL		100%
N/C(=N\N=C\c1ccccc1Cl)c1ccncc1		H37Rv	MIC				8 µg/mL
CC1CCC(NCCNC[C@]2(C)CCC[C@]3(C)c4ccc(C(C)C)cc4CC[C@@H]23)CC1			MIC				25 µM
C=C(C)CC[C@H]1CN(c2ccn(N3CCOCC3)c2)C(=O)O1		ATCC 35837 (ethambutol-resistant)	MIC90				>100 µM
O=C(c1ccncc1)N1C(c2ccccc2)=C(c2ccccc2)Sc2nnc(-c3ccccc3Cl)n21			MIC				100 µg/mL
CCc1c(Cl)c(OCCCn2cc(CCN3CCC(N)CC3)nn2)c(Cl)c(OCCCn2cc(CCN3CCC(N)CC3)nn2)c1C(=O)OC1C(C)OC(OC/C2=C\C=C\C[C@H](O)/C(C)=C/[C@H](CC)[C@H](OC3OC(C)(C)C(OC(=O)C(C)C)C(O)C3O)/C(C)=C/C(C)=C/C[C@@H]([C@@H](C)O)OC2=O)C(OC)C1O	visual reading	H37Ra	MIC				4 µg/mL
COc1ccc2c(c1)[n+]([O-])c(S(=O)(=O)c1ccc(C)cc1)c(N)[n+]2[O-]		ETA-R	MIC				>12.5 µg/mL
c1ccc(NCCNC2C3CC4CC(C3)CC2C4)cc1		H37Rv	MIC				25 µM
CC(=O)c1c(C)n([O-])c2cc(Cl)c(Cl)cc2[n+]1=O	BACTEC	H37Rv	EC50	VERO			<6.25 µg/mL
O=[N+]([O-])c1cccc(C=Nc2ccc(-c3nnc(Nc4ccccc4)s3)cc2)c1		H37Rv	inhibition		6.25 µg/mL		29%
COc1cc(/C=N/N=C(\N)c2ccncc2)cc(OC)c1		1342	MIC				256 µg/mL
CC(=O)n1nc(C)c(-c2onc3ccc(Cl)cc23)c1C	BACTEC	H37Rv	inhibition		12.5 µg/mL		8%
CCCCCc1ccc(Oc2c(F)cccc2C#N)c(O)c1			MIC100				25 µg/mL
CC1(C)N=c2cc3c(cc2N1c1ccc(Cl)cc1)=Nc1ccccc1N3c1ccc(Cl)cc1		TAC-R	MIC				0.8 µg/mL
Cc1ccc(Nc2nnc(-c3ccc(N=Cc4ccc([N+](=O)[O-])o4)cc3)s2)cc1		H37Rv	inhibition		6.25 µg/mL		22%
NNC(=O)c1ccncc1	agar	H37Rv	MIC				3.125 µg/mL
O=Cc1c(-c2ccc(Br)cc2)nc2sc(C3CCCCC3)nn12	BACTEC	H37Rv	inhibition		6.25 µg/mL		<90%
CCCCCc1ccc(Oc2cccnc2C#N)c(O)c1			MIC100				0.313 µg/mL
CC(=O)c1c(C)n([O-])c2cc(C)c(C)cc2[n+]1=O	BACTEC	H37Rv	EC50	VERO			<6.25 µg/mL
COc1cc(-c2oc3c(OC)c(OC)cc(O)c3c(=O)c2OC)ccc1O	BACTEC	H37Rv	MIC bound				>12.5 µg/mL
Oc1ccccc1C=Nc1ccc(-c2nnc(NCc3ccccc3)s2)cc1		H37Rv	inhibition		6.25 µg/mL		1%
CCn1cc(C(=O)O)c(=O)c2cc(F)c(N3CCN(C(=O)Cc4ccccc4Nc4c(Cl)cccc4Cl)C(C)C3)c(F)c21		H37Rv	MIC				0.32 µM
C=C/C(C)=C/[C@@]1(C)SC(=O)C(C)=C1O		H37Rv	MIC90				125 µM
CCN(CC)CCNc1ccc2nc(C)n3c4ccc(OC)cc4c(=O)c1c23.Cl		H37Rv	MIC				12.5 µg/mL
COc1ccccc1N1CCN(Cc2c(C(C)=O)[n+](=O)c3ccccc3n2[O-])CC1	BACTEC	H37Rv	EC50				>6.25 µg/mL
CCCCCCCCCCCNCCNCc1ccco1			MIC				50 µM
CC1=C(O)C(C)(CCC(C)CCCC(C)C)SC1=O		H37Rv	MIC50				22 µM
CCCCCc1ccc(Oc2cnccc2N)c(O)c1			MIC100				50 µg/mL
N#Cc1c(-c2ccccc2)nc2sc(-c3cccs3)nn12	BACTEC	H37Rv	inhibition		6.25 µg/mL		<90%
CN(C)C1CCC(Nc2nc(Nc3cc(Cl)cc(Cl)c3)nc3ccccc23)CC1.Cl.Cl	resazurin	H37Rv	MIC bound				<6.25 µg/mL
CCCCCc1ccc(Oc2ccccc2N)c(O)c1			MIC100				3.13 µg/mL
c1cc(NCCNC2CCCCC2)c2cccnc2c1			MIC				3.13 µM
N[C@H]1CCN(c2nc3c(cc2F)c(=O)c(C(=O)O)cn3C2CC2)C1		H37Rv	EC50	Macrophages		inside macrophages	<1 µg/mL
CC(=O)Nc1ccc(C2OC(=O)C(O)=C2C(=O)C=C(C)C)cc1	resazurin	H37Rv	inhibition		6.25 µg/mL		9%
c1ccc(-c2cn3nc(C4CCCCC4)sc3n2)cc1	BACTEC	H37Rv	inhibition		6.25 µg/mL		<90%